Measurements: PMC10696396, “HilE represses the activity of the Salmonella virulence regulator HilD via a mechanism distinct from that of intestinal long-chain fatty acids” (The Journal of Biological Chemistry, 2023)

Target: T1, HilD (Salmonella enterica) (UniProt P0CL08)
T1 sequence (looked up, limits assumed): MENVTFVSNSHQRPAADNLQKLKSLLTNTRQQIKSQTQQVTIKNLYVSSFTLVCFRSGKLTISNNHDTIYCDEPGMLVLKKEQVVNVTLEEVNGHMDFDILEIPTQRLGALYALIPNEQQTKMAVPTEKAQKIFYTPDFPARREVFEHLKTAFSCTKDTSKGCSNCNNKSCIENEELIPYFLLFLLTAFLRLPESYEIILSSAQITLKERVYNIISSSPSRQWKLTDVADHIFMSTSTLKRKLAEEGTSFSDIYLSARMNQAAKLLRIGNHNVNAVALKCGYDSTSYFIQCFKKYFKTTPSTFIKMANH
Assay: EMSA
Settings: no fatty acid; recombinant protein; label: 5'-Cy5 on forward strand

“GGGAGTAAAGAAAAGACGATATCATTATTTTGCAAAAAAATATAAAAATAAGCGCACCATTA (double strand) [hilA promoter A1 fragment, 62 bp]”: binds.

Construct, isoform or probe ends are uncertain for at least one entry. At least one verdict was read from the data and is not stated in words by the source. Tags and fusion partners may be left off the protein sequences shown.
